Results: US20160264649A1

Legend:
Test in all cases: cell-based or functional assay
[1] = target: HIV-1 Env of the clade G viruses (n=15) of the cross-clade 162-pseudovirus panel
[2] = target: HIV-1 Env of the clade G pseudoviruses of the cross-clade 162-pseudovirus panel (n = 15)
[3] = target: HIV-1 Env of the clade AE viruses (n=10) of the cross-clade 162-pseudovirus panel
[4] = target: HIV-1 Env of the 162-pseudovirus panel representing all major circulating HIV-1 subtypes (HIV-1)
[5] = target: HIV-1 Env of the clade F viruses (n=15) of the cross-clade 162-pseudovirus panel
[6] = target: HIV-1 Env of all viruses (n=162) of the cross-clade 162-pseudovirus panel
[7] = target: HIV-1 Env of all pseudoviruses of the cross-clade 162-pseudovirus panel (n = 162)
[8] = target: HIV-1 Env of the clade D viruses (n=25) of the cross-clade 162-pseudovirus panel
[9] = target: HIV-1 Env of the clade F pseudoviruses of the cross-clade 162-pseudovirus panel (n = 15)
[10] = target: HIV-1 Env of the clade C pseudoviruses of the cross-clade 162-pseudovirus panel (n = 27)
[11] = target: HIV-1 Env of the clade AG pseudoviruses of the cross-clade 162-pseudovirus panel (n = 10)
[12] = target: HIV-1 Env of the clade B viruses (n=31) of the cross-clade 162-pseudovirus panel
[13] = target: HIV-1 Env of the clade A viruses (n=26) of the cross-clade 162-pseudovirus panel
[14] = target: HIV-1 Env of the clade AG viruses (n=10) of the cross-clade 162-pseudovirus panel
[15] = target: HIV-1 Env of the clade D pseudoviruses of the cross-clade 162-pseudovirus panel (n = 25)
[16] = target: HIV-1 Env of the clade C viruses (n=27) of the cross-clade 162-pseudovirus panel
[17] = target: HIV-1 Env of the clade AE pseudoviruses of the cross-clade 162-pseudovirus panel (n = 10)

Binder | Median IC50 (µg/ml) against viruses neutralized with an IC50 <50 µg/ml [1] | Percent viruses neutralized with an IC50 <50 µg/ml [1] | Median IC50 (µg/ml) against all viruses [2] | Percent viruses neutralized with an IC50 <50 µg/ml [3] | Median IC50 (µg/ml) against viruses neutralized with an IC50 <50 µg/ml [4] | Percent viruses neutralized, IC50 < 0.1 µg/ml [4] | Percent viruses neutralized, IC50 < 1 µg/ml [4] | Percent viruses neutralized, IC50 < 50 µg/ml [4] | Median IC50 (µg/ml) against all viruses [5] | Median IC50 (µg/ml) against viruses neutralized with an IC50 <50 µg/ml [5] | Percent viruses neutralized with an IC50 <50 µg/ml [5] | Median IC50 (µg/ml) against viruses neutralized with an IC50 <50 µg/ml [6] | Percent viruses neutralized with an IC50 <50 µg/ml [6] | Median IC50 (µg/ml) against all viruses [7] | Median IC50 (µg/ml) against all viruses [8] | Median IC50 (µg/ml) against viruses neutralized with an IC50 <50 µg/ml [8] | Percent viruses neutralized with an IC50 <50 µg/ml [8] | Median IC50 (µg/ml) against all viruses [9] | Median IC50 (µg/ml) against all viruses [11] | Median IC50 (µg/ml) against all viruses [12] | other results
4993_K13 (PGT-141) (antibody, V domains shown) VH: QVQLVQSGPEVKKPGSSVKVSCKASGNTFSKYDVHWVRQATGQGLEWVGWMSHEGDKTESAQRFKGRVTFTRDTSASTAYMELRGLTSDDTAIYYCTRGSKHRLRDYVLYDDYGLINYQEWNDYLEFLDVWGHGTAVTVSS VL: DTVVTQSPLSLPVTPGEAASMSCSSTQSLRHSNGANYLAWYQHKPGQSPRLLIRLGSQRASGVPDRFSGSGSGTHFTLKISRVEAEDAAIYYCMQGLNRPWTFGKGTKLEIK | 0.3 µg/mL | 67% | > 50 µg/mL | 40% | 0.35 µg/mL | 15% | 36% | 56% | 1.15 µg/mL | 0.24 µg/mL | 67% | 0.35 µg/mL | 56% | > 50 µg/mL | 50 µg/mL | 0.37 µg/mL | 28% | > 50 µg/mL | > 50 µg/mL | 33.2 µg/mL | Median IC50 (µg/ml) against viruses neutralized with an IC50 <50 µg/ml [3]: 0.01 µg/mL; Median IC50 (µg/ml) against all viruses [10]: > 50 µg/mL; Median IC50 (µg/ml) against viruses neutralized with an IC50 <50 µg/ml [12]: 0.48 µg/mL; Percent viruses neutralized with an IC50 <50 µg/ml [12]: 52%; Median IC50 (µg/ml) against all viruses [13]: 1.92 µg/mL; Median IC50 (µg/ml) against viruses neutralized with an IC50 <50 µg/ml [13]: 0.22 µg/mL; Percent viruses neutralized with an IC50 <50 µg/ml [13]: 66%; Median IC50 (µg/ml) against viruses neutralized with an IC50 <50 µg/ml [14]: 0.5 µg/mL; Percent viruses neutralized with an IC50 <50 µg/ml [14]: 50%; Median IC50 (µg/ml) against all viruses [15]: > 50 µg/mL; Median IC50 (µg/ml) against all viruses [16]: 3.28 µg/mL; Median IC50 (µg/ml) against viruses neutralized with an IC50 <50 µg/ml [16]: 0.33 µg/mL; Percent viruses neutralized with an IC50 <50 µg/ml [16]: 70%; Median IC50 (µg/ml) against all viruses [17]: > 50 µg/mL
4995_P16 (PGT-145) (antibody, V domains shown) VH: QVQLVQSGAEVKKPGSSVKVSCKASGNSFSNHDVHWVRQATGQGLEWMGWMSHEGDKTGLAQKFQGRVTITRDSGASTVYMELRGLTADDTAIYYCLTGSKHRLRDYFLYNEYGPNYEEWGDYLATLDVWGHGTAVTVSS VL: EVVITQSPLFLPVTPGEAASLSCKCSHSLQHSTGANYLAWYLQRPGQTPRLLIHLATHRASGVPDRFSGSGSGTDFTLKISRVESDDVGTYYCMQGLHSPWTFGQGTKVEIK | 0.11 µg/mL | 80% | 9.93 µg/mL | 90% | 0.29 µg/mL | 27% | 52% | 78% | 0.82 µg/mL | 0.82 µg/mL | 100% | 0.29 µg/mL | 78% | 31.2 µg/mL | 10 µg/mL | 1.07 µg/mL | 72% | 16.3 µg/mL | 35.4 µg/mL | 0.34 µg/mL | Median IC50 (µg/ml) against viruses neutralized with an IC50 <50 µg/ml [3]: 0.97 µg/mL; Median IC50 (µg/ml) against all viruses [10]: 30.6 µg/mL; Median IC50 (µg/ml) against viruses neutralized with an IC50 <50 µg/ml [12]: 0.09 µg/mL; Percent viruses neutralized with an IC50 <50 µg/ml [12]: 77%; Median IC50 (µg/ml) against all viruses [13]: 1.16 µg/mL; Median IC50 (µg/ml) against viruses neutralized with an IC50 <50 µg/ml [13]: 0.4 µg/mL; Percent viruses neutralized with an IC50 <50 µg/ml [13]: 81%; Median IC50 (µg/ml) against viruses neutralized with an IC50 <50 µg/ml [14]: 0.16 µg/mL; Percent viruses neutralized with an IC50 <50 µg/ml [14]: 70%; Median IC50 (µg/ml) against all viruses [16]: 0.49 µg/mL; Median IC50 (µg/ml) against viruses neutralized with an IC50 <50 µg/ml [16]: 0.14 µg/mL; Percent viruses neutralized with an IC50 <50 µg/ml [16]: 70%; Median IC50 (µg/ml) against all viruses [17]: 39.4 µg/mL
5345_I01 (PGT-137) (antibody, V domains shown) VH: EVHLEESGPGLVRPSETLSLTCTASGGSIRGGEWGDSDYHWGWVRHSPEKGLEWIGSIHWRGTTHYNAPFRGRGRLSIDLSRNQFSLRLTSVTAEDTAVYYCVKHKYHDIVMVVPIAGWFDPWGQGLQVTVSS VL: EIMMTQSPAILSVSPGDRATLSCRASQSVKNNLAWYQKRPGQAPRLLIFDTSSRASGIPARFSGGGSGTEFTLTVNSMQSEDFATYYCQQYEEWPRTFGQGTKVEIK | 0.23 µg/mL | 33% | > 50 µg/mL | 0% | 3.46 µg/mL | 4% | 8% | 22% | 50 µg/mL | 6.23 µg/mL | 20% | 3.48 µg/mL | 22% | > 50 µg/mL | 50 µg/mL | 6.3 µg/mL | 12% | > 50 µg/mL | > 50 µg/mL | 50 µg/mL | Median IC50 (µg/ml) against viruses neutralized with an IC50 <50 µg/ml [12]: 8.55 µg/mL; Percent viruses neutralized with an IC50 <50 µg/ml [12]: 19%; Median IC50 (µg/ml) against all viruses [13]: 50 µg/mL; Median IC50 (µg/ml) against viruses neutralized with an IC50 <50 µg/ml [13]: 0.72 µg/mL; Percent viruses neutralized with an IC50 <50 µg/ml [13]: 23%; Median IC50 (µg/ml) against viruses neutralized with an IC50 <50 µg/ml [14]: 28.3 µg/mL; Percent viruses neutralized with an IC50 <50 µg/ml [14]: 10%; Median IC50 (µg/ml) against all viruses [15]: > 50 µg/mL; Median IC50 (µg/ml) against all viruses [16]: 50 µg/mL; Median IC50 (µg/ml) against viruses neutralized with an IC50 <50 µg/ml [16]: 0.23 µg/mL; Percent viruses neutralized with an IC50 <50 µg/ml [16]: 33%; Median IC50 (µg/ml) against all viruses [17]: > 50 µg/mL
